Laboratory results taken from publication PMC10125960, “Structural basis for botulinum neurotoxin E recognition of synaptic vesicle protein 2” (Nature Communications, 2023).

Target: receptor-binding domain of BoNT/E (HCE), residues R846–K1252 (UniProt Q00496, biotin (biotinylated HCE in the neuron binding assay only))

B1: VHH-JLE-G6 (residues Q1–S129), stand-alone, tag removed (VHH)
VHH: QLQLVETGGGLVKPGGSLRLSCVVSGFTFDDYRMAWVRQAPGKELEWVSSIDSWSINTYYEDSVKGRFTISTDNAKNTLYLQMSSLKPEDTAVYYCAAEDRLGVPTINAHPSKYDYNYWGQGTQVTVSS
B1: binds.

B2: His/SUMO-tagged G6^WT (VHH)
VHH: QLQLVETGGGLVKPGGSLRLSCVVSGFTFDDYRMAWVRQAPGKELEWVSSIDSWSINTYYEDSVKGRFTISTDNAKNTLYLQMSSLKPEDTAVYYCAAEDRLGVPTINAHPSKYDYNYWGQGTQVTVSS
B2: binds.
